Test results reported in patent publication EP0426314B1 (VIRAL TECHNOLOGIES, INC., priority 1989, dated 1995).
HELM strings list residues between dots; [ac] is acetyl, [am] amide, other brackets name non-standard units.

How the values were obtained:
[1] = general procedure: Boc solid-phase peptide synthesis; Boc-amino acid-OCH2-C6H4-Resin; Boc-Lys(ClZ)-PAM-Resin; DCC; details: whole synthesis
[2] = general procedure: Boc solid-phase peptide synthesis; Boc-Lys(ClZ)-PAM-Resin; DCC; details: whole synthesis, scale 0.32 mmol

## PEPTIDE1{I.V.W.A.S.R.E.L.E.R.F.A.V.N.P.G.L.L.Y}$$$$V2.0
[1]; scale 0.9 mmol
  crude mass: 0.33 g

## PEPTIDE1{A.Q.Q.A.A.A.D.T.G.H.S.S.Q.V.S.Q.N.Y}$$$$V2.0
[1]; scale 0.5 mmol
  crude mass: 0.36 g

## PEPTIDE1{G.A.R.A.S.V.L.S.G.G.E.L.D.R.W.E.K.I.R.L.R.P.G.G.K.K.K.Y.K.L.K.H.K}$$$$V2.0
[1]; analytical HPLC, scale of the general procedure 0.32-0.9 mmol
  crude HPLC purity: about 90% pure
[2]
  crude mass: 580 mg
